Experimental data: patent US10358419B2, “1,3-dipolar [70]fulleropyrrolidinium iodide derivatives” (priority 2015, dated 2019)

Test system: HIVluc-derived viruses carrying protease mutants resistant to multiple protease inhibitors (11803, 11805, 11806, 11807, 11808, 11809)
Conditions: 2a 3 μM, Indinavir 0.1 μM during virus production; SupT1, luciferase normalized to ATP

`CC(C)(C)NC(=O)[C@@H]1CN(Cc2cccnc2)CCN1C[C@@H](O)C[C@@H](Cc1ccccc1)C(=O)N[C@H]1c2ccccc2C[C@H]1O` [Indinavir] was tested, and the “Effect on infectivity of multi protease inhibitor resistant viruses (FIG. 12)” value was “failed to significantly affect the infection of these viruses”.
